Results of unrelated studies side by side (data: NIAID ChemDB).

All rows: tests in culture; species: Candida krusei

Zone: diameter of growth inhibition.

C[C@@H]1[C@H](O)[C@@H](C)/C=C/C=C/CC/C=C/C=C/C=C/C=C/C(O[C@H]2O[C@H](C)[C@@H](O)[C@H](N)[C@@H]2O)CC2O[C@](O)(CC(O)C(O)CCC(O)CC(O)CC(O)CC(=O)O[C@H]1C)CC(O)C2C(=O)O ; read-out: MIC ; strain or isolate: CBS 573 ; read by: broth dilution ; result: 3.9 µg/mL
COc1cc(C)ccc1O ; read-out: MIC ; read by: broth dilution ; result: 1790 µg/mL
Clc1ccc(COC(Cn2ccnc2)c2ccc(Cl)cc2Cl)c(Cl)c1 ; read-out: MIC100 ; strain or isolate: LM 120 ; read by: broth dilution ; result: 32 µg/mL
c1ccc([Se][Se]c2ccccc2)cc1 ; read-out: MIC ; strain or isolate: ATCC 6258 ; read by: broth dilution ; result: 32 µg/mL
O=[N+]([O-])c1cc(CSc2nnnn2-c2ccc(Cl)c(Cl)c2)cc([N+](=O)[O-])c1 ; read-out: EC80 ; conditions: 24 h ; strain or isolate: E28 ; read by: broth dilution ; result: >125 µM
Cc1ccccc1O ; read-out: MIC ; read by: broth dilution ; result: 1050 µg/mL
O=[N+]([O-])c1cc(CSc2cccc[n+]2[O-])cc([N+](=O)[O-])c1 ; read-out: EC80 ; conditions: 24 h ; strain or isolate: E28 ; read by: broth dilution ; result: >500 µM
Cc1cccc(O)c1 ; read-out: MIC ; read by: broth dilution ; result: 850 µg/mL
C[C@@H](c1ncncc1F)[C@](O)(Cn1cncn1)c1ccc(F)cc1F ; read-out: MIC50 ; strain or isolate: 17 isolates ; result: 0.5 µg/mL
C=CCOc1ccc(C2CC(=O)c3c(O)cc(O)cc3O2)cc1 ; dose: 100 µg/mL ; read-out: zone ; read by: agar diffusion / agar ; result: 0 mm
C=CCc1ccc(O)c(-c2cc(CC=C)ccc2O)c1 ; read-out: MIC ; read by: broth dilution ; result: 10 µg/mL
C[C@H](Cc1ccc(O)c(O)c1)[C@@H](C)Cc1ccc(O)c(O)c1 ; read-out: MIC100 ; strain or isolate: CCC 117-2000 ; read by: broth dilution ; result: 500 µg/mL
O=[N+]([O-])c1cc(CSc2nnnn2Cc2ccccc2)cc([N+](=O)[O-])c1 ; read-out: EC80 ; conditions: 48 h ; strain or isolate: E28 ; read by: broth dilution ; result: >500 µM
C[C@H]1[C@H](O)[C@@H](C)/C=C/C=C/C=C/C=C/C=C/C=C/C=C/[C@H](O[C@@H]2O[C@H](C)[C@@H](O)[C@H](N)[C@@H]2O)C[C@@H]2O[C@](O)(C[C@@H](O)C[C@@H](O)CC[C@H](O)[C@@H](O)C[C@@H](O)CC(=O)O[C@H]1C)C[C@H](O)[C@H]2C(=O)O ; read-out: MIC50 ; strain or isolate: 17 isolates ; result: 2 µg/mL
O=Cc1cccc(O)c1O ; read-out: EC50 ; strain or isolate: PYCC 2241 ; read by: broth dilution / turbidity ; result: 0.08 µM
C=CCSS(=O)CC=C ; read-out: MIC ; read by: broth dilution ; result: 80 µg/mL
CC(C)CCOc1ccc(C2CC(=O)c3c(O)cc(O)cc3O2)cc1 ; dose: 100 µg/mL ; read-out: zone ; read by: agar diffusion / agar ; result: 0 mm
O=C(O)c1ccccc1O ; read-out: EC50 ; strain or isolate: PYCC 3341 ; read by: broth dilution / turbidity ; result: 0.2 µM
COc1cc(C=O)ccc1O ; read-out: MIC ; read by: broth dilution ; result: 260 µg/mL
C=CC(C)(O)CCCC=C(C)C ; read-out: MIC90 ; result: 0.025–0.031 µg/mL
O=C(O)c1ccccc1 ; read-out: EC50 ; strain or isolate: PYCC 3341 ; result: 0.71 µM
C[C@@H]1[C@H](O)[C@@H](C)/C=C/C=C/C=C/C=C/C=C/C=C/C=C/[C@H](O[C@@H]2O[C@H](C)[C@@H](O)[C@H](N)[C@@H]2O)C[C@@H]2O[C@](O)(C[C@@H](O)C[C@@H](O)[C@H](O)CC[C@@H](O)C[C@@H](O)CC(=O)O[C@H]1C)C[C@H](O)[C@H]2C(=O)O ; read-out: MIC100 ; strain or isolate: ATCC 40147 ; read by: broth dilution ; result: >1024 µg/mL
O=[N+]([O-])c1cc(C[Se]c2nnnn2C2CCCCC2)cc([N+](=O)[O-])c1 ; read-out: EC80 ; conditions: 48 h ; strain or isolate: E28 ; read by: broth dilution ; result: >500 µM

For reference, 2 entries again:

SMILES	dose	read-out	conditions	strain or isolate	read by	result
C[C@H]1[C@H](O)[C@@H](C)/C=C/C=C/C=C/C=C/C=C/C=C/C=C/[C@H](O[C@@H]2O[C@H](C)[C@@H](O)[C@H](N)[C@@H]2O)C[C@@H]2O[C@](O)(C[C@@H](O)C[C@@H](O)CC[C@H](O)[C@@H](O)C[C@@H](O)CC(=O)O[C@H]1C)C[C@H](O)[C@H]2C(=O)O	-	MIC50	-	17 isolates	-	2 µg/mL
O=Cc1cccc(O)c1O	-	EC50	-	PYCC 2241	broth dilution / turbidity	0.08 µM

Conditions beyond the fields shown may differ between rows. A number after MIC or MFC names an inhibition level or a share of isolates. ECn is the concentration giving n% inhibition of infection, replication or growth. Two numbers with a dash give a range or band. An empty or dashed field is not shown.